Record: PubChem BioAssay AID504761 (Drosophila RNAi Screening Center, 2011)
Purpose: 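Fly genes whose silencing reduces dengue virus type 2 infection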 (primary screen). Cells: D.Mel-2 cells from Drosophila. Reagents: long dsRNA against Drosophila genes. Challenge: infection with dengue virus type 2; dose and infection time not stated. Detection: 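Cells stained for dengue envelope protein and imaged; percent of infected cells per well on duplicate plates, ranked by infection, with stained nuclei counted for cell number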. Scale: infection score: higher = more virus-infected cells; cell count: higher = more cells in the well. Call rule: 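Very low infection ranking in both replicate wells (chance probability at most 0.065), then a retest showing infection dropped 1.5-fold or more at p below 0.05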. Meaning of the calls: active = confirmed: knock-down lowers infection; inactive = not picked or not confirmed.
In all, the deposit lists about 22,000 reagents; below is a random part of those that have a named target and a result. In the full data, 116 (0.52%) got an active call. 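Calls depend on retest data that are not deposited; infection was ranked per plate without normalising between plates; the unit of the infection score is not given.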 Raw values vary from plate to plate and are shown uncorrected. A plus sign joins genes that one reagent is predicted to hit. Not stated in the record: the amount of reagent, the time to read-out.

| predicted target | dsRNA | infection score, replicate 1 | infection score, replicate 2 | cell count, replicate 1 | cell count, replicate 2 | call |
| --- | --- | --- | --- | --- | --- | --- |
| MFS15 | DRSC06523 | 1.37 | 0.67 | 6045 | 6735 | inactive |
| MFS15 | DRSC28274 | 14.2 | 13 | 5992 | 3738 | inactive |
| Nep3 | DRSC20685 | 0.69 | 0.91 | 6258 | 6021 | inactive |
| Nep3 | DRSC29285 | 11 | 21.4 | 3108 | 5876 | inactive |
| CG34046 (retired record) | DRSC14075 | 4.1 | 4.16 | 6704 | 5836 | inactive |
| CG34046 (retired record) | DRSC30016 | 18.6 | 8.62 | 5847 | 6403 | inactive |
| Coa7 | DRSC20967 | 3.76 | 5.2 | 1754 | 1712 | inactive |
| Coa7 | DRSC27224 | 10.4 | 12.4 | 5713 | 5952 | inactive |
| CG1137 | DRSC12529 | 2.89 | 6.07 | 6540 | 7034 | inactive |
| CG1137 | DRSC29434 | 20.1 | 16.7 | 5383 | 2949 | inactive |
| alphaKap4 | DRSC09823 | 0.34 | 2.36 | 5836 | 6010 | inactive |
| ACXC | DRSC00846 | 13.1 | 4.08 | 6060 | 6024 | inactive |
| CG3687 | DRSC06850 | 4.35 | 13.6 | 827 | 3129 | inactive |
| CG3687 | DRSC29588 | – | – | 349 | 359 | inactive |
| GAPsec | DRSC10564 | 3.5 | 1.93 | 6682 | 7039 | inactive |
| GAPsec | DRSC26128 | 4.1 | 2.67 | 6072 | 5916 | inactive |
| CR14798 | DRSC17956 | 11.6 | 5.65 | 2725 | 6459 | inactive |
| CG32686 | DRSC17645 | 10.2 | 4.15 | 6045 | 6379 | inactive |
| CG32686 | DRSC25488 | 9.72 | 5.39 | 2110 | 5644 | inactive |
| CG18507 | DRSC01334 | 2.08 | 3.49 | 6735 | 6338 | inactive |
| CG18507 | DRSC01914 | 13.4 | 8.97 | 4887 | 5711 | inactive |
| emc | DRSC23238 | 1.28 | 6.69 | 7194 | 6905 | inactive |
| emc | DRSC28439 | 8.09 | 13.4 | 5612 | 5640 | inactive |
| EMC3 | DRSC02989 | 3.11 | 3.32 | 6686 | 6587 | inactive |
| EMC3 | DRSC28014 | 9.08 | 18.1 | 6026 | 5643 | inactive |
| TfIIA-S-2 | DRSC17791 | 2.14 | 1.39 | 6552 | 6472 | inactive |
| Ziz | DRSC02506 | 10.6 | 18.5 | 5959 | 3860 | inactive |
| Ziz | DRSC02976 | 3.22 | 5.06 | 5587 | 6167 | inactive |
| CG4653 | DRSC19909 | 5.76 | 16.3 | 6045 | 6277 | inactive |
| CG4653 | DRSC22857 | 1.5 | 2.48 | 5940 | 6286 | inactive |
| CG4653 | DRSC24329 | 3.14 | 6.05 | 6184 | 5587 | inactive |
| CG42583 | DRSC22937 | 3.29 | 13.8 | 6225 | 7084 | inactive |
| CG42583 | DRSC26327 | 4.12 | 1.72 | 6402 | 6407 | inactive |
| EndoU + CR31292 | DRSC26161 | 7.43 | 3.23 | 4938 | 6442 | inactive |
| udt | DRSC14214 | 0.69 | 3.21 | 5973 | 5889 | inactive |
| CG30288 | DRSC22005 | 4.62 | 1.97 | 6795 | 6902 | inactive |
| CG30288 | DRSC29991 | 6.86 | 11.3 | 6560 | 5821 | inactive |
| ChAT | DRSC16609 | 13 | 3.24 | 2986 | 6112 | inactive |
| ChAT | DRSC22755 | 3.12 | 1.27 | 5928 | 864 | inactive |
| Ars2 | DRSC04893 | 63 | 39.8 | 3940 | 4542 | inactive |
| CG34353 | DRSC14493 | 5.23 | – | 5261 | 304 | inactive |
| CG34353 | DRSC14517 | 13.2 | – | 6174 | 335 | inactive |
| CG34353 | DRSC14563 | – | 1.04 | 323 | 865 | inactive |
| CG34353 | DRSC15837 | 8.74 | 15.5 | 3868 | 3423 | inactive |
| CG34353 | DRSC22429 | 1.15 | 2.64 | 5905 | 6521 | inactive |
| CG34353 | DRSC27095 | – | 13.5 | – | 6476 | inactive |
| CG34353 | DRSC30113 | 3.64 | 7.29 | 6795 | 6323 | inactive |
| wg | DRSC03636 | 5.04 | 4.91 | 5716 | 5682 | inactive |
| wg | DRSC29776 | 20.6 | 13.9 | 6250 | 5922 | inactive |
| mRpS22 | DRSC14488 | 4.69 | 14.1 | 6100 | 6347 | inactive |
| mRpS22 | DRSC28355 | 14.8 | 7.04 | 5125 | 1634 | inactive |
| cDIP | DRSC14267 | 4.01 | 4.32 | 6003 | 6363 | inactive |
| spz | DRSC17065 | 1.84 | 4.48 | 217 | 6471 | inactive |
| spz | DRSC28820 | 19.1 | 15 | 5970 | 5754 | inactive |
| CG13323 | DRSC06360 | 8.61 | 18.4 | 7340 | 3505 | inactive |
| spag | DRSC04717 | 9.75 | 8.41 | 5693 | 6135 | inactive |
| Mrgn1 | DRSC20223 | 5.93 | 15.4 | 7017 | 7098 | inactive |
| CG12995 | DRSC19515 | 14.9 | 2.22 | 1550 | 6387 | inactive |
| CG12995 | DRSC27519 | 2.91 | 2.83 | 5877 | 6936 | inactive |
| CG31808 | DRSC22962 | 1.05 | 0.82 | 5719 | 6597 | inactive |
| CG31808 | DRSC29167 | 11.3 | 21.7 | 5320 | 5455 | inactive |
| CG44836 | DRSC09915 | 1.23 | 2.04 | 6095 | 6314 | inactive |
| CG44836 | DRSC26572 | 2.61 | 2.9 | 6137 | 5872 | inactive |
| Acbp1 | DRSC03093 | 3.62 | 10.5 | 6154 | 6184 | inactive |
| Acbp1 | DRSC29718 | 13.8 | 7.91 | 6577 | 6211 | inactive |
| Ddx56 | DRSC20567 | 8.65 | 2.43 | 4938 | 5998 | inactive |
| Ddx56 | DRSC26165 | 1.85 | 1.58 | 5737 | 6394 | inactive |
| ben | DRSC20310 | 4.52 | 12.2 | 5489 | 5476 | inactive |
| ben | DRSC21261 | 7.56 | 5.12 | 6220 | 6189 | inactive |
| ben | DRSC29133 | – | – | 246 | 319 | inactive |
| opa | DRSC12384 | 6.27 | 11.7 | 6074 | 6484 | inactive |
| opa | DRSC23152 | 1.66 | 8.26 | 6505 | 6184 | inactive |
| opa | DRSC26411 | 11.2 | 2.76 | 5762 | 6302 | inactive |
| MESR3 | DRSC02463 | 13.2 | 11.2 | 4986 | 2517 | inactive |
